Compound potency records, mixed from different reports. Data source: NIAID ChemDB in PubChem.

Common to all: growth or infection tests; species: Human cytomegalovirus

Conditions beyond the fields shown may differ between rows. ECn: concentration that inhibits the pathogen or its effect by n%. An empty or dashed field is not shown.

{"SMILES": "N#CC1C(c2ccc(Cl)cc2)Nc2sccc2S1(=O)=O", "strain or isolate": "AD169", "method": "cytopathic effect", "endpoint": "EC50", "cell line": "HEL", "result": "7 µg/mL"}
{"SMILES": "Nc1nc2c(ncn2C=C2CC2CO)c(=O)[nH]1", "strain or isolate": "AD169", "endpoint": "EC50", "cell line": "HFF", "result": "1.2 µM"}
{"SMILES": "CC#Cc1cn([C@@H]2O[C@H](COP(=O)(NCCCCCCCCCCCC)Oc3ccccc3)[C@@H](O)[C@@H]2O)c(=O)[nH]c1=O", "strain or isolate": "AD169", "method": "plaque count", "endpoint": "EC50", "cell line": "MRC-5", "result": ">10 µM"}
{"SMILES": "COc1ccc(-c2cc3ccccn3c2)cc1OC", "strain or isolate": "AD169", "method": "plaque count", "endpoint": "EC50", "cell line": "MRC-5", "result": ">100 µM"}
{"SMILES": "O=C1c2ccccc2[C@@]2(O)[C@H]3C4CC5CC(C4)CC3(C5)CN12", "strain or isolate": "DAVIS", "method": "plaque count", "endpoint": "EC50", "cell line": "HEL", "result": ">20 µg/mL"}
{"SMILES": "CC#Cc1cn([C@@H]2O[C@H](COP(=O)(O)OCC(Cl)(Cl)Cl)[C@@H](O)[C@@H]2O)c(=O)[nH]c1=O", "strain or isolate": "AD169", "method": "plaque count", "endpoint": "EC50", "cell line": "MRC-5", "result": ">100 µM"}
{"SMILES": "N#CC1C(c2ccccc2)Nc2sccc2S1(=O)=O", "strain or isolate": "DAVIS", "method": "cytopathic effect", "endpoint": "EC50", "cell line": "HEL", "result": "50 µg/mL"}
{"SMILES": "c1coc(-c2cc3ccccn3c2)c1", "strain or isolate": "AD169", "method": "plaque count", "endpoint": "EC50", "cell line": "MRC-5", "result": ">100 µM"}
{"SMILES": "O[C@@H]1[C@H](O)[C@H](O)CO[C@H]1n1c(Br)nc2cc(Cl)c(Cl)cc21", "strain or isolate": "VR4955R (drug-resistant)", "method": "plaque count", "endpoint": "EC50", "cell line": "HFF", "result": "3.5 µM"}
{"SMILES": "Fc1ccccc1-c1cc2ccccn2c1", "strain or isolate": "AD169", "method": "plaque count", "endpoint": "EC50", "cell line": "MRC-5", "result": ">10 µM"}
{"SMILES": "N#CC1=C(c2ccccc2)Nc2sccc2S1(=O)=O", "strain or isolate": "DAVIS", "method": "cytopathic effect", "endpoint": "EC50", "cell line": "HEL", "result": ">50 µg/mL"}
{"SMILES": "O=C1NC[C@@H]2C34CC5CC(CC(C5)[C@H]3[C@]2(O)c2ccccc21)C4", "strain or isolate": "DAVIS", "method": "plaque count", "endpoint": "EC50", "cell line": "HEL", "result": ">20 µg/mL"}
{"SMILES": "OC[C@H]1O[C@@H](c2cc(Br)c(F)cc2F)C[C@@H]1O", "strain or isolate": "AD169", "method": "cytopathic effect", "endpoint": "EC50", "cell line": "HEL", "result": ">200 µM"}
{"SMILES": "CC#Cc1cn([C@@H]2O[C@H](COP(=O)(O)Oc3ccc(OC)cc3)[C@@H](O)[C@@H]2O)c(=O)[nH]c1=O", "strain or isolate": "AD169", "method": "plaque count", "endpoint": "EC50", "cell line": "MRC-5", "result": ">100 µM"}
{"SMILES": "OC[C@H]1O[C@H](c2cc(F)c(F)cc2F)C[C@@H]1O", "strain or isolate": "DAVIS", "method": "cytopathic effect", "endpoint": "EC50", "cell line": "HEL", "result": ">200 µM"}
{"SMILES": "Nc1nc(N)c2ncn(C=C3CC3CO)c2n1", "strain or isolate": "TOWNE", "endpoint": "EC50", "cell line": "HFF", "result": "24 µM"}
{"SMILES": "O=C(O)c1ccc2cc(-c3ccccc3)cn2c1", "strain or isolate": "AD169", "method": "plaque count", "endpoint": "EC50", "cell line": "MRC-5", "result": ">100 µM"}
{"SMILES": "Cc1cc([C@H]2C[C@H](O)[C@@H](CO)O2)c(F)cc1F", "strain or isolate": "AD169", "method": "cytopathic effect", "endpoint": "EC50", "cell line": "HEL", "result": ">200 µM"}
{"SMILES": "N#Cc1ccc(-c2cc3ccccn3c2)cc1", "strain or isolate": "AD169", "method": "plaque count", "endpoint": "EC50", "cell line": "MRC-5", "result": ">100 µM"}
{"SMILES": "CC#Cc1cn([C@@H]2O[C@H](COP(=O)(O)OCCCCCCCCCCCC)[C@@H](O)[C@@H]2O)c(=O)[nH]c1=O", "strain or isolate": "AD169", "method": "plaque count", "endpoint": "EC50", "cell line": "MRC-5", "result": ">10 µM"}
{"SMILES": "Cc1cc([C@@H]2C[C@H](O)[C@@H](CO)O2)c(F)cc1Cl", "strain or isolate": "DAVIS", "method": "cytopathic effect", "endpoint": "EC50", "cell line": "HEL", "result": "158 µM"}
{"SMILES": "N#CC1C(c2ccc(Cl)cc2)Nc2ccccc2S1(=O)=O", "strain or isolate": "AD169 (PFA-resistant)", "method": "cytopathic effect", "endpoint": "EC50", "cell line": "HEL", "result": "3.2 µg/mL"}
{"SMILES": "O=C1CCCC(C23CC4CC(C2)CC(N2C(=O)c5ccccc5C2=O)(C4)C3)C1", "strain or isolate": "DAVIS", "method": "plaque count", "endpoint": "EC50", "cell line": "HEL", "result": ">4 µg/mL"}
{"SMILES": "Nc1nc2c(ncn2COC(CO)CO)c(=O)[nH]1", "strain or isolate": "Recombinant C4 (D341E)", "method": "virus yield", "endpoint": "EC95", "result": "3.7 µM"}
{"SMILES": "O=[N+]([O-])c1cccc(-c2cc3ccccn3c2)c1", "strain or isolate": "AD169", "method": "plaque count", "endpoint": "EC50", "cell line": "MRC-5", "result": ">10 µM"}
{"SMILES": "Cc1cc([C@H]2C[C@H](O)[C@@H](CO)O2)c(Cl)cc1F", "strain or isolate": "AD169", "method": "cytopathic effect", "endpoint": "EC50", "cell line": "HEL", "result": ">200 µM"}
{"SMILES": "CC#Cc1cn([C@@H]2O[C@H](COP(=O)(OCC)Oc3ccccc3)[C@@H](O)[C@@H]2O)c(=O)[nH]c1=O", "strain or isolate": "AD169", "method": "plaque count", "endpoint": "EC50", "cell line": "MRC-5", "result": ">100 µM"}
{"SMILES": "Clc1ccc(-c2cc3ccccn3c2)cc1Cl", "strain or isolate": "AD169", "method": "plaque count", "endpoint": "EC50", "cell line": "MRC-5", "result": ">100 µM"}
{"SMILES": "CC#Cc1cn([C@@H]2O[C@H](COP(=O)(O)Oc3ccc(F)cc3)[C@@H](O)[C@@H]2O)c(=O)[nH]c1=O", "strain or isolate": "AD169", "method": "plaque count", "endpoint": "EC50", "cell line": "MRC-5", "result": ">100 µM"}
{"SMILES": "CC(=O)c1c(-c2ccc(OC(F)(F)F)cc2)cc2ccccn12", "strain or isolate": "AD169", "method": "plaque count", "endpoint": "EC50", "cell line": "MRC-5", "result": ">100 µM"}
{"SMILES": "OC[C@H]1O[C@H](c2cc(Br)c(F)cc2F)C[C@@H]1O", "strain or isolate": "DAVIS", "method": "cytopathic effect", "endpoint": "EC50", "cell line": "HEL", "result": ">200 µM"}
{"SMILES": "O=C1NC23CC4CC(C2)C2C(C4)C3C2(O)c2ccccc21", "strain or isolate": "DAVIS", "method": "plaque count", "endpoint": "EC50", "cell line": "HEL", "result": ">100 µg/mL"}
{"SMILES": "Nc1nc2c(ncn2COC(CO)CO)c(=O)[nH]1", "strain or isolate": "C8706/13-1-1 (drug-resistant)", "method": "plaque count", "endpoint": "EC50", "cell line": "HFF", "result": "22 µM"}
{"SMILES": "COC(=O)[C@H](C)NP(=O)(OCC1C/C1=C/n1cnc2c(=O)[nH]c(N)nc21)Oc1ccccc1", "strain or isolate": "TOWNE", "endpoint": "EC50", "cell line": "HFF", "result": "4.2 µM"}
{"SMILES": "Cc1cc([C@H]2C[C@H](O)[C@@H](CO)O2)c(F)cc1Cl", "strain or isolate": "DAVIS", "method": "cytopathic effect", "endpoint": "EC50", "cell line": "HEL", "result": ">200 µM"}
{"SMILES": "COC(=O)c1ccc2cc(-c3ccccc3)cn2c1", "strain or isolate": "AD169", "method": "plaque count", "endpoint": "EC50", "cell line": "MRC-5", "result": ">100 µM"}
{"SMILES": "Nc1ncnc2c1ncn2[C@H]1C[C@]12C[C@H]2CO", "endpoint": "EC50", "cell line": "HFF", "result": "20 µM"}
{"SMILES": "OC[C@H]1O[C@H](c2ccc(F)cc2F)C[C@@H]1O", "strain or isolate": "DAVIS", "method": "cytopathic effect", "endpoint": "EC50", "cell line": "HEL", "result": ">200 µM"}

The first 5 rows once more:

SMILES	strain or isolate	method	endpoint	cell line	result
N#CC1C(c2ccc(Cl)cc2)Nc2sccc2S1(=O)=O	AD169	cytopathic effect	EC50	HEL	7 µg/mL
Nc1nc2c(ncn2C=C2CC2CO)c(=O)[nH]1	AD169	-	EC50	HFF	1.2 µM
CC#Cc1cn([C@@H]2O[C@H](COP(=O)(NCCCCCCCCCCCC)Oc3ccccc3)[C@@H](O)[C@@H]2O)c(=O)[nH]c1=O	AD169	plaque count	EC50	MRC-5	>10 µM
COc1ccc(-c2cc3ccccn3c2)cc1OC	AD169	plaque count	EC50	MRC-5	>100 µM
O=C1c2ccccc2[C@@]2(O)[C@H]3C4CC5CC(C4)CC3(C5)CN12	DAVIS	plaque count	EC50	HEL	>20 µg/mL